In patent publication US20240109955A1 (published 2024):

Assays:
Test in all cases: cell-based or functional assay
[1] = molecular target: SARS-CoV-2 spike (S) protein, Omicron sublineage BA.2.75.2 (R346T, F486S) (SARS-CoV-2, UniProt P0DTC2)
[2] = molecular target: SARS-CoV-2 spike protein, original Wuhan strain (WA1) (SARS-CoV-2, UniProt P0DTC2 14-1273)
[3] = molecular target: SARS-CoV-2 spike protein, Omicron sublineage BQ.1 (SARS-CoV-2, UniProt P0DTC2 14-1273)

B1: MX828 (bispecific antibody)
chain: QTVVTQEPSFSVSPGGTVTLTCGLSSGSVSTAYFPSWYQQTPGQAPRTLIYGTNTRSSGVPDRFSGSILGNKAALTITGAQADDESDYYCVLYMGRGIVVFGGGTKLTVLGGSSGEIVLTQSPGTLSLSPGERATLSCRASQSVSSSYLAWYQQKPGQAPRLLIYSASSRATGIPDRFSGSGSGTDFTLTISRLEPEDFAVYFCQQYVGLTGWTFGQGTKVEIKGGGGSGGSGSGGGGSASGSGQMQLVQSGPEVKKPGTSVKVSCKASGFTFTSSAVQWVRQRQRLEWIGWIVVGSGNTNYAQKFQERVTITRDMSTSTAYMELSSLRSEDTAVYYCAAPNCSNVVCYDGFDIWGQGTMVTVSSGGSSGQVQLVESGGGVVQPGRSLRLSCAASGFTLSSYGMHWVRQAPGKGLEWVAVISYDGSNKYYVDSVKGRFTISRDNSKNTLYLQMNSLRAEDTAVYYCRWAYWELLPDYYYGMDVWGQGTTVTVSSASGGSGDKTHTCPPCPAPELLGGPSVFLFPPKPKDTLMISRTPEVTCVVVDVSHEDPEVKFNWYVDGVEVHNAKTKPREEQYNSYVVSVLTVLHQDWLNGKEYKCKVSNKALPAPIEKTISKAKGQPREPQVYTLPPSRDELTKNQVSLTCLVKGFYPSDIAVEWESNGQPENNYKTTPPVLDSDGSFFKKLTVDKSRWQQGNVFSCSVLHEALHSHYTQKSLSLSPG
IC50, pseudovirus neutralization [1]: 2460 nM | IC80, pseudovirus neutralization [1]: 7940 nM

B2: E12 (antibody, V domains shown)
VH: EVQLVESGGGLIQPGGSLRLSCAASGVIVSYNYMNWVRQAPGKGLEWVSVIYSGGSTFYADSVRGRFTISRDNSKNTLYLQMNSLRAEDTAVYYCARDLGPAGAFDIWGLGTMVTVSS
VL: EIVLTQSPGTLSLSPGETATLSCRASQSFSSDLAWYQQKPGQAPRLLIYGASSRATGIPDRFSGSGSGTDFTLTISRLEPADFAVYYCQQYGSSPPVTFGGGTKVEIK
IC50, pseudovirus neutralization [2]: 0.0778 µg/mL | IC80, pseudovirus neutralization [2]: 0.118 µg/mL

B3: A23-58H/A23-58L93VGLTG (antibody, V domains shown)
VH: QMQLVQSGPEVKKPGTSVKVSCKASGFTFTSSAVQWVRQRQRLEWIGWIVVGSGNTNYAQKFQERVTITRDMSTSTAYMELSSLRSEDTAVYYCAAPNCSNVVCYDGFDIWGQGTMVTVSS
VL: EIVLTQSPGTLSLSPGERATLSCRASQSVSSSYLAWYQQKPGQAPRLLIYSASSRATGIPDRFSGSGSGTDFTLTISRLEPEDFAVYFCQQYVGLTGWTFGQGTKVEIK
IC50, pseudovirus neutralization [3]: 23.5 nM | IC80, pseudovirus neutralization [3]: 87.7 nM

B4: MX829 (bispecific antibody)
chain: DIQMTQSPSSVSASVGDRVIITCRASQGISSWLAWYQQKPGKAPKVLIYDASSLQSGVPSRFSGSGYGTDFTLTISSLQPEDSATYYCQQAKSFPITFGQGTRLEIKGGSSGEIVLTQSPGTLSLSPGERATLSCRASQSVSSSYLAWYQQKPGQAPRLLIYSASSRATGIPDRFSGSGSGTDFTLTISRLEPEDFAVYFCQQYVGLTGWTFGQGTKVEIKGGGGSGGSGSGGGGSASGSGQMQLVQSGPEVKKPGTSVKVSCKASGFTFTSSAVQWVRQRQRLEWIGWIVVGSGNTNYAQKFQERVTITRDMSTSTAYMELSSLRSEDTAVYYCAAPNCSNVVCYDGFDIWGQGTMVTVSSGGSSGQVQLVESGGGVVQPGRSLRLSCAASGFTFSSYAFHWVRQAPGKGLEWVAVISYDGSNQYYADSVKGRFTISRDNSKNTLYLQMNSLRADDTAVYYCARDLAIAVAGTWHYYNGMDVWGQGTTVTVSSASGGSGDKTHTCPPCPAPELLGGPSVFLFPPKPKDTLMISRTPEVTCVVVDVSHEDPEVKFNWYVDGVEVHNAKTKPREEQYNSYVVSVLTVLHQDWLNGKEYKCKVSNKALPAPIEKTISKAKGQPREPQVYTLPPSRDELTKNQVSLTCLVKGFYPSDIAVEWESNGQPENNYKTTPPVLDSDGSFFKKLTVDKSRWQQGNVFSCSVLHEALHSHYTQKSLSLSPG
IC50, pseudovirus neutralization [1]: > 10000 nM | IC80, pseudovirus neutralization [1]: > 10000 nM

B5: E8 (antibody, V domains shown)
VH: QVTLRESGPALVKPTQTLTLTCTFSGFSLSTRGVCVSWIRQPPGKALEWLAFIDWDDDKYYNTSLKTRLTISKDTSKNQVVLTMTNVHPVDTATYYCARISSHHGSSWCTTFDYWGQGALVTVSA
VL: DTVMTQSPLSLPVTPGEPASISCRSSQSLLNSNGYNYLDWYVQKPGQSPQLLIYLGSNRASGVPDRFSGSGSGTDFTLKISRVEAEDVGVYYCMQPLQTPLFTFGPGTKVEIK
IC50, pseudovirus neutralization [3]: 124 nM | IC80, pseudovirus neutralization [3]: 5190 nM

B6: E8 (antibody, V domains shown)
VH: QVTLRESGPALVKPTQTLTLTCTFSGFSLSTRGVCVSWIRQPPGKALEWLAFIDWDDDKYYNTSLKTRLTISKDTSKNQVVLTMTNVHPVDTATYYCARISSHHGSSWCTTFDYWGQGALVTVSA
VL: DTVMTQSPLSLPVTPGEPASISCRSSQSLLNSNGYNYLDWYVQKPGQSPQLLIYLGSNRASGVPDRFSGSGSGTDFTLKISRVEAEDVGVYYCMQPLQTPLFTFGPGTKVEIK
IC50, pseudovirus neutralization [2]: 0.00877 µg/mL | IC80, pseudovirus neutralization [2]: 0.0207 µg/mL

B7: B8 (antibody, V domains shown)
VH: EVQLVESGGALIQPGGSLRLSCAASGIIVSANYMSWVRQAPGKGLEWVSVIYSGGSTFYADSVKGRFTISRDNSKNTLYLEMNSLRAEDTAVYYCARDAPILGVSDWGQGTLVTVSS
VL: EIVMTQSPAILSVSPGERATLSCRASQSVAINLAWYQQKPGQAPRLLIYAASSRATGIPGRFSGSGSETNFTLTISSLQSGDFAVYYCQQYITWPPSYTFGQGTKLEIK
IC50, pseudovirus neutralization [3]: 15 nM | IC80, pseudovirus neutralization [3]: 49.6 nM

B8: B8 (antibody, V domains shown)
VH: EVQLVESGGALIQPGGSLRLSCAASGIIVSANYMSWVRQAPGKGLEWVSVIYSGGSTFYADSVKGRFTISRDNSKNTLYLEMNSLRAEDTAVYYCARDAPILGVSDWGQGTLVTVSS
VL: EIVMTQSPAILSVSPGERATLSCRASQSVAINLAWYQQKPGQAPRLLIYAASSRATGIPGRFSGSGSETNFTLTISSLQSGDFAVYYCQQYITWPPSYTFGQGTKLEIK
IC50, pseudovirus neutralization [2]: 0.0719 µg/mL | IC80, pseudovirus neutralization [2]: 0.0841 µg/mL
